Results on 64 molecules are retold here after paper PMC6753678, “Fueling Open Innovation for Malaria Transmission-Blocking Drugs: Hundreds of Molecules Targeting Early Parasite Mosquito Stages” (Frontiers in Microbiology, 2019).

Molecules are shown by their SMILES.

The data set has as its system P. falciparum female gametocytes. Briefly: P. falciparum female gametogenesis assay (Pf FGAA).
The mark [1] stands for this setting: unified cytotox / Pf FGAA IC50, <10-fold selectivity red, >10-fold green.
Setting [2] is: unified cytotox / Pf FGAA IC50, red: <10-fold selectivity, green: >10-fold.
The mark [3] stands for this setting: unified cytotox / IC50, <10-fold red, >10-fold green.

Turning to `CC(C)c1ccc(CN2CCC(CNC(=O)c3cc(-c4cccc(C(F)(F)F)c4)cs3)C2)cc1.O=C(O)C(F)(F)F` (stereo not shown) [TCMDC-134435], the “Assay tox ratio Pf FGAA” value under setting [1] is reported as 3.93. Regarding `Br.CCc1c(CCNCCCCCCNCCc2ccc(Br)cc2)ccc(O)c1O` [TCMDC-132044], under setting [1], the “Assay tox ratio Pf FGAA” value worked out at 6.15. Turning to `COc1cc2nc(-c3ccc(Br)cc3)cc(N)c2cc1OC` [TCMDC-138933], the “Assay tox ratio Pf FGAA” value under setting [2] was 6.53. As for `NCCCCNc1cc(-c2ccnc(Nc3cccc(Cl)c3)n2)ccn1` [TCMDC-134683], the “Assay tox ratio Pf FGAA” value under setting [1] is recorded as 0.46.

With `Cc1ccc(Cn2nc(Cl)c(N3CCCNCC3)cc2=O)cc1NC(=O)Nc1ccc(-c2ccccc2)cc1.O=C(O)C(F)(F)F` [TCMDC-141697], the “Assay tox ratio Pf FGAA” value under setting [2] is 7.30. In the case of `Cc1cc(F)ccc1-c1nc(NCCCNCCc2ccccc2)nc2c1ccc(=O)n2-c1c(F)cccc1F.O=C(O)C(F)(F)F` [TCMDC-141804], under setting [3], the “Assay tox ratio Pf FGAA” value is 3.33. Take `C[C@H](Cc1ccc(OCCCCCCOc2ccc(C[C@@H](C)N[C@H](C)c3ccccc3)cc2)cc1)NC[C@H](O)c1cccc(Cl)c1.Cl` [TCMDC-131564]: the “Assay tox ratio Pf FGAA” value under setting [1] turned out to be 5.97. For the molecule `CN(C)CCCNCc1cn(S(=O)(=O)c2ccccc2Cl)c2ccccc12.Cl` [TCMDC-136302], the “Assay tox ratio Pf FGAA” value under setting [1] was 6.39. Same read-out and setting: the value for `COc1ccccc1CNc1ccnc(N2CC(Oc3ccc(F)cc3)C2)n1` [TCMDC-135118] was 18.10. Turning to `COC(=O)c1ccc(-c2ccc(-c3cccnc3)cc2C)cc1` [TCMDC-139074], the “Assay tox ratio Pf FGAA” value under setting [2] is reported as 6.20.

With `COc1ccc(CNC2Cc3ccccc3C2)cc1-c1ccc(S(=O)(=O)NCCN2CCCC2)c(F)c1.O=C(O)C(F)(F)F` [TCMDC-132266], the “Assay tox ratio Pf FGAA” value under setting [1] is recorded as 3.10. As to `COc1ccc2nc3cc(Cl)ccc3c(N)c2c1.Cl` [TCMDC-125835], under setting [3], the “Assay tox ratio Pf FGAA” value is 5.73. Turning to `ON=C(c1nc2ccccc2[nH]1)c1nc2ccccc2[nH]1` [TCMDC-125758], the “Assay tox ratio Pf FGAA” value under setting [1] is on record as 14.86. On to `c1ccc(-c2nc(Nc3nc4ccccc4[nH]3)[nH]c2-c2ccccc2)cc1` [TCMDC-139099], for which, under setting [2], the “Assay tox ratio Pf FGAA” value is on record as 18.85. For `Cl.NCC1(c2nc(-c3ccc(Cl)c(O)c3)c(-c3ccncc3)[nH]2)CCCCC1` [TCMDC-141154], the “Assay tox ratio Pf FGAA” value under setting [3] came to 138.05. Turning to `c1ccc(CNc2cc(-c3ccccn3)nc(-c3ccccn3)n2)cc1` [TCMDC-125421], the “Assay tox ratio Pf FGAA” value under setting [1] was 40.15. Same read-out and setting: the value for `Cc1cc(-c2ccc(CNC3Cc4ccccc4C3)cc2)ccc1S(=O)(=O)NCCN1CCCC1.O=C(O)C(F)(F)F` [TCMDC-132243] was 2.90. For `Cc1ccc(S(=O)(=O)N(CCCNCc2cccc(O)c2)c2ccccc2)cc1` [TCMDC-138022], under setting [3], the “Assay tox ratio Pf FGAA” value is 34.82.

With `CCn1c(-c2nonc2N)nc2c(-c3cccc(NC(=O)Nc4ccc(C(F)(F)F)cc4)c3)ncc(OCCCN)c21.O=C(O)C(F)(F)F` [TCMDC-136179], the “Assay tox ratio Pf FGAA” value under setting [1] is given as 6.15. Take `O=C(NCC1CCN(Cc2cccc(C(F)(F)F)c2)C1)c1cc(-c2cccc(C(F)(F)F)c2)cs1.O=C(O)C(F)(F)F` (stereo not shown) [TCMDC-134483]: the “Assay tox ratio Pf FGAA” value under setting [1] is 9.83. Consider `CCCOc1c(CCNCCCCNCCc2ccc3ccccc3c2OCCC)ccc2ccccc12.CS(=O)(=O)O` [TCMDC-137950], for which the “Assay tox ratio Pf FGAA” value under setting [1] is 2.69. Regarding `CC(NCCc1cccc(Cl)c1)C(O)c1ccc(OCCCCCCOc2ccc(C(O)C(C)NCCc3cccc(Cl)c3)cc2)cc1` (stereo not shown) [TCMDC-139334], under setting [2], the “Assay tox ratio Pf FGAA” value was 2.63. On to `COc1ccc(-c2csc3ncnc(Cl)c23)cc1` [TCMDC-123805], for which the “Assay tox ratio Pf FGAA” value under setting [1] is 0.38. `CC(C)(C)c1ccc(CNC(=O)c2cc(CNC3CCNCC3)ccc2O)cc1` [TCMDC-140775]: the “Assay tox ratio Pf FGAA” value under setting [2] stood at 6.99.

For the molecule `CC(Nc1cc(-c2ccccn2)nc(-c2ccccn2)n1)c1ccccc1` (stereo not shown) [TCMDC-125420], the “Assay tox ratio Pf FGAA” value under setting [1] turned out to be 29.80. Consider `FC(F)(F)c1cccc(Nc2nc3ccccc3nc2Nc2cccc(C(F)(F)F)c2)c1` [TCMDC-124162], for which the “Assay tox ratio Pf FGAA” value under setting [1] stood at 7.38.

Consider `Cc1ccnc(NC(c2ccc(Cl)c([N+](=O)[O-])c2)c2ccc3cccnc3c2O)c1` (stereo not shown) [TCMDC-123691], for which the “Assay tox ratio Pf FGAA” value under setting [1] was determined as 15.84.

As to `COc1ccc(N2CCN(CCCCNCc3ccc(NC(=O)c4cc(Cl)cc(Cl)c4)cc3)CC2)c(OC)c1` [TCMDC-138226], the “Assay tox ratio Pf FGAA” value under setting [1] was found to be 1.42.

As to `CC(C)(CNC(=O)[C@H]1CCCCN1)c1nc(-c2ccc(Cl)c(O)c2)c(-c2ccncc2)[nH]1.Cl` [TCMDC-141070], the “Assay tox ratio Pf FGAA” value under setting [3] came to 84.96. For `Cl.Clc1ccc(CNCCCCCCCNCc2ccc(Cl)c(Cl)c2)cc1Cl` [TCMDC-138075], under setting [1], the “Assay tox ratio Pf FGAA” value came to 6.57.

Regarding `CC(C)(C)CNCC(C)(C)c1nc(-c2ccc(Cl)c(O)c2)c(-c2ccncc2)[nH]1.Cl` [TCMDC-140549], the “Assay tox ratio Pf FGAA” value under setting [3] is given as 11.71. For the molecule `CC(Cc1ccc(NC(=O)c2ccc(CNCCCCc3ccccc3)cc2)cc1)NCCc1cccc(Cl)c1.Cl` (stereo not shown) [TCMDC-139866], under setting [2], the “Assay tox ratio Pf FGAA” value turned out to be 1.76. In the case of `Cc1[nH]c(C)c(-c2ccc(CCc3ccc(F)cc3F)cc2)c(=O)c1Cl` [TCMDC-135462], the “Assay tox ratio Pf FGAA” value under setting [3] is 7.52.

`Nc1ccc2[nH]cc(C3CCN(CC4CCN(C(=O)/C=C/c5ccc(Cl)c(Cl)c5)CC4)CC3)c2n1` [TCMDC-140061]: under setting [2], the “Assay tox ratio Pf FGAA” value stood at 3.33. Take `O=C(c1ccc([N+](=O)[O-])o1)N1CCN(c2nc3c(Cl)cccc3s2)CC1` [TCMDC-124316]: the “Assay tox ratio Pf FGAA” value under setting [1] is 38.14. On the same count and under the same terms, with `CC(C)(C)Nc1cc(C2CC2)nc(-c2ccccn2)n1` [TCMDC-124453] the figure was 1041.57; with `COc1ccc(NC(=O)Nc2ccc(Nc3nc(C)cc(N4CCCC4)n3)cc2)cc1` [TCMDC-124958], 11.05; with `Br.CC(C)(Cc1ccc(Cl)cc1)NCCCCCCNCCc1ccc(O)c(O)c1` [TCMDC-131277], 1.14. Regarding `CCN(CC)CCN(Cc1ccc(-c2ccc(Cl)cc2)cc1)C(=O)Cn1cc(CN(C)C)c(=O)nc1SCc1ccc(F)cc1` [TCMDC-140406], the “Assay tox ratio Pf FGAA” value under setting [2] is reported as 4.77.

In the case of `CCCC(N)C(=O)NC1CCN(c2c(F)c(N)c3c(=O)c(C(=O)O)cn4c3c2Oc2ccccc2-4)C1.Cl` (stereo not shown) [TCMDC-125701], the “Assay tox ratio Pf FGAA” value under setting [3] is 2.30. Consider `CN1CCN(c2ccc(Nc3ncc([N+](=O)[O-])c(Nc4ccccc4O)n3)cc2)CC1.O=C(O)C(F)(F)F` [TCMDC-141372], for which the “Assay tox ratio Pf FGAA” value under setting [2] came to 0.91.

Take `COc1ccc(CNC2Cc3ccccc3C2)cc1-c1ccc(S(=O)(=O)NCCN2CCCC2)s1.O=C(O)C(F)(F)F` [TCMDC-132258]: the “Assay tox ratio Pf FGAA” value under setting [1] is 3.82. On to `Cl.NC1CCN(CCc2ccc(NS(=O)(=O)c3ccc(-c4ccccc4)cc3)cc2)CC1` [TCMDC-134085], for which the “Assay tox ratio Pf FGAA” value under setting [1] is 9.58.

On to `CN(C)CCCNCc1ccc(-c2ccc(C(F)(F)F)cc2)cc1` [TCMDC-140011], for which, under setting [2], the “Assay tox ratio Pf FGAA” value worked out at 2.92.

Regarding `O=C(Nc1cccc(-c2cccc(-c3nc4cc(C(F)(F)F)ccc4[nH]3)c2)c1)Nc1ccc(F)c(F)c1F` [TCMDC-133229], under setting [1], the “Assay tox ratio Pf FGAA” value was 2.46.

For the molecule `CCCN(CCC)CCCN(CCCN(CCC)CCC)c1cc(C)nc(Nc2ccc3cc(Br)ccc3c2)n1.Cl` [TCMDC-138006], the “Assay tox ratio Pf FGAA” value under setting [1] was determined as 3.48. Regarding `CC(C)(CNC(=O)[C@@H]1CCCCN1)c1nc(-c2ccc(Cl)c(O)c2)c(-c2ccncc2)[nH]1.Cl` [TCMDC-141079], under setting [2], the “Assay tox ratio Pf FGAA” value stood at 24.69.

Consider `Clc1cccc(C23N=C(Nc4nc5ccccc5[nH]4)NC2(c2ccccc2)NC(Nc2nc4ccccc4[nH]2)=N3)c1` (stereo not shown) [TCMDC-139089], for which the “Assay tox ratio Pf FGAA” value under setting [2] came out at 284.85.

For the molecule `O=C(c1ccc([N+](=O)[O-])o1)N1CCN(c2nc3c(F)cc(F)cc3s2)CC1` [TCMDC-125149], the “Assay tox ratio Pf FGAA” value under setting [1] stood at 76.53. On to `Nc1nc(N)c2c(ccc3[nH]c(-c4ccccc4Cl)nc32)n1` [TCMDC-137840], for which the “Assay tox ratio Pf FGAA” value under setting [1] amounted to 0.52. Consider `CC(Cc1ccc(NC(=O)c2ccc(CNCCc3ccccc3)cc2)cc1)NCCc1cccc(Cl)c1.Cl` (stereo not shown) [TCMDC-139867], for which the “Assay tox ratio Pf FGAA” value under setting [2] amounted to 2.02.

Regarding `Oc1ccc2[nH]cc(C3CCN(CCCNCc4ccc(-c5ccccc5)cc4)CC3)c2c1` [TCMDC-139047], the “Assay tox ratio Pf FGAA” value under setting [2] worked out at 3.91. Consider `Oc1c(C(Nc2nc3ccccc3s2)c2ccccc2)ccc2cccnc12` (stereo not shown) [TCMDC-125565], for which the “Assay tox ratio Pf FGAA” value under setting [3] is 0.77. Turning to `Cl.Nc1c2c(nc3ccc(NC(=O)CCCCCCc4ccccc4)cc13)CCCC2` [TCMDC-139056], the “Assay tox ratio Pf FGAA” value under setting [2] is 2.28. On to `Cn1c(Sc2ncnc3sccc23)nc2ccccc21` [TCMDC-124514], for which, under setting [3], the “Assay tox ratio Pf FGAA” value was 80.21. Turning to `CN(C)c1ccc(-c2csc(C(=O)NCC3CCN(Cc4ccc(C(C)(C)C)cc4)C3)c2)cc1.O=C(O)C(F)(F)F` (stereo not shown) [TCMDC-134449], under setting [1], the “Assay tox ratio Pf FGAA” value is 11.99. `Clc1ccc(Nc2nc(NCc3ccccc3)nc(N/N=C/c3ccccn3)n2)cc1` [TCMDC-138557]: the “Assay tox ratio Pf FGAA” value under setting [2] was determined as 53.35.

Regarding `c1ccc(-c2nc(NC3CCCCC3)cc(C3CC3)n2)nc1` [TCMDC-125825], under setting [1], the “Assay tox ratio Pf FGAA” value is 307.80. As for `CC(C)c1ccc(CN2CCC(CNC(=O)c3cc(-c4ccc(N(C)C)cc4)cs3)C2)cc1.O=C(O)C(F)(F)F` (stereo not shown) [TCMDC-134440], under setting [1], the “Assay tox ratio Pf FGAA” value is given as 8.27. The same measure, in the same setting: with `C=CCc1cccc(CN2CCC(c3cc(=O)[nH]c(-c4ccccn4)n3)CC2)c1O` [TCMDC-124851] the figure was 6.59. Consider `CCN(CC)CCN(Cc1ccc(-c2ccc(C(F)(F)F)cc2)cc1)C(=O)Cn1cc(Cc2cnn(C)c2)c(=O)nc1/C=C/c1ccc(F)cc1.O=C(O)C(O)C(O)C(=O)O` [TCMDC-140741], for which, under setting [2], the “Assay tox ratio Pf FGAA” value was found to be 11.45.

As for `Cc1c(Cn2nc(Cl)c(N3CCNCC3)cc2=O)cccc1NC(=O)Nc1ccc(-c2ccccc2)cc1.O=C(O)C(F)(F)F` [TCMDC-141699], the “Assay tox ratio Pf FGAA” value under setting [2] worked out at 0.86.

In the case of `COc1c(CNCCCCCCNCc2cc(Cl)c3ccccc3c2OC)cc(Cl)c2ccccc12.CS(=O)(=O)O` [TCMDC-137958], under setting [1], the “Assay tox ratio Pf FGAA” value is reported as 3.92. With `N#Cc1ccc(Cn2ccc3c4c(N)nc(N)nc4ccc32)cc1` [TCMDC-137820], the “Assay tox ratio Pf FGAA” value under setting [3] came to 0.00161.
